This experiment concerns A. flavus. As to the kind of experiment: Treatment with endocytosis inhibitors: effect on aflatoxin production. It is filed as cell-based, Aspergillus flavus. To be noted: filipin 3 μM, natamycin 6 μM; 40 h mycelia.

Regarding `CCCCC[C@@H](O)[C@H]1C(=O)O[C@H](C)[C@@H](O)/C=C/C=C/C=C/C=C/C=C(\C)[C@@H](O)C[C@H](O)C[C@H](O)C[C@H](O)C[C@H](O)C[C@H](O)C[C@@H]1O` [filipin], the “aflatoxin production compared to untreated control (A. flavus + the exemplary composition)” value is “increase aflatoxin production”.

These data come from US20220249576A1 (priority 2021, published 2022).
